Taken from: PubChem BioAssay AID1224833 (University of Georgia, 2016)
The deposit covers about 12,000 reagents; shown is a random part of them. In the full data, about 5,600 (46%) got an active call. 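Active calls cover z-scores past 1 in both directions, so they include lowered as well as raised rotavirus replication.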 Entries without a mark were called inactive.

- Purpose: 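Human genes whose knock-down alters rotavirus replication in monkey cells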 (primary screen)
- System: monkey MA104 kidney cells
- Reagents: siRNA pool against human genes, 50 nM
- Time to read-out: 48 h knock-down before infection; read 24 h after infection
- Conditions: infection with rotavirus strain RV3 two days after transfection; infectious dose for this stage not given
- Measured: 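Rotavirus antigen per well by fluorescent immunoassay, normalised to non-targeting control wells on each plate and given as a standard z-score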
- Reading the numbers: z-score vs non-targeting control: higher = more rotavirus replication than with non-targeting control
- Rule for the call: In these data the active calls have z-score vs non-targeting control at about -1 or lower, or at about 1 or higher
- Calls: active = z-score beyond 1 either way; inactive = z-score within 1 of zero

The opening 16 records, to show the layout:
| gene knocked down | PubChem SID | z-score vs non-targeting control |
| --- | --- | --- |
| CCN1 (cellular communication network factor 1) | SID329574122 | -1.55 (active) |
| HLA-DOA (major histocompatibility complex, class II, DO alpha) | SID329573965 | -0.823 |
| PCDHA6 (protocadherin alpha 6) | SID329579991 | 1.08 (active) |
| TP53RK (TP53 regulating kinase) | SID329582171 | 0.689 |
| ZNF626 (zinc finger protein 626) | SID329583388 | 0.0941 |
| CLEC18A (C-type lectin domain family 18 member A) | SID329584171 | -1.43 (active) |
| EDN3 (endothelin 3) | SID329573483 | 0.928 |
| SUMO2 (small ubiquitin like modifier 2) | SID329575404 | 1.99 (active) |
| KRTAP6-3 (keratin associated protein 6-3) | SID329584012 | -0.251 |
| SYT12 (synaptotagmin 12) | SID329582020 | -0.614 |
| CC2D1A (coiled-coil and C2 domain containing 1A) | SID329579432 | -0.979 |
| ZNF322 (zinc finger protein 322) | SID329580960 | -1.89 (active) |
| CALR (calreticulin) | SID329572999 | -1.1 (active) |
| KAT7 (lysine acetyltransferase 7) | SID329577558 | 0.53 |
| ZNF395 (zinc finger protein 395) | SID329579922 | -0.303 |
| OPTN (optineurin) | SID329576981 | -1.13 (active) |

Main list, repeating the preview:
| gene knocked down | PubChem SID | z-score vs non-targeting control |
| --- | --- | --- |
| CCN1 (cellular communication network factor 1) | SID329574122 | -1.55 (active) |
| HLA-DOA (major histocompatibility complex, class II, DO alpha) | SID329573965 | -0.823 |
| PCDHA6 (protocadherin alpha 6) | SID329579991 | 1.08 (active) |
| TP53RK (TP53 regulating kinase) | SID329582171 | 0.689 |
| ZNF626 (zinc finger protein 626) | SID329583388 | 0.0941 |
| CLEC18A (C-type lectin domain family 18 member A) | SID329584171 | -1.43 (active) |
| EDN3 (endothelin 3) | SID329573483 | 0.928 |
| SUMO2 (small ubiquitin like modifier 2) | SID329575404 | 1.99 (active) |
| KRTAP6-3 (keratin associated protein 6-3) | SID329584012 | -0.251 |
| SYT12 (synaptotagmin 12) | SID329582020 | -0.614 |
| CC2D1A (coiled-coil and C2 domain containing 1A) | SID329579432 | -0.979 |
| ZNF322 (zinc finger protein 322) | SID329580960 | -1.89 (active) |
| CALR (calreticulin) | SID329572999 | -1.1 (active) |
| KAT7 (lysine acetyltransferase 7) | SID329577558 | 0.53 |
| ZNF395 (zinc finger protein 395) | SID329579922 | -0.303 |
| OPTN (optineurin) | SID329576981 | -1.13 (active) |
| PBRM1 (polybromo 1) | SID329579627 | 2.56 (active) |
| ZNF346 (zinc finger protein 346) | SID329578068 | 1.68 (active) |
| PARD3 (par-3 family cell polarity regulator) | SID329580028 | -0.308 |
| MAP1LC3C (microtubule associated protein 1 light chain 3 gamma) | SID329584584 | 0.958 |
| CEP131 (centrosomal protein 131) | SID329577756 | 1.05 (active) |
| SMPX (small muscle protein X-linked) | SID329578115 | -0.415 |
| SSR4 (signal sequence receptor subunit 4) | SID329575494 | 0.449 |
| FTSJ3 (FtsJ RNA 2'-O-methyltransferase 3) | SID329582348 | -1.37 (active) |
| ZNF385C (zinc finger protein 385C) | SID329583425 | -1.87 (active) |
| BRWD3 (bromodomain and WD repeat domain containing 3) | SID329583696 | 0.487 |
| ZNF677 (zinc finger protein 677) | SID329584109 | -0.621 |
| ADD1 (adducin 1) | SID329572693 | -1.15 (active) |
| CABLES1 (Cdk5 and Abl enzyme substrate 1) | SID329582027 | -0.316 |
| SCMH1 (Scm polycomb group protein homolog 1) | SID329577746 | 1.27 (active) |
| SLFNL1 (schlafen like 1) | SID329583402 | 0.656 |
| LMCD1 (LIM and cysteine rich domains 1) | SID329578758 | -0.797 |
| BBS10 (Bardet-Biedl syndrome 10) | SID329580985 | 0.583 |
| WBP4 (WW domain binding protein 4) | SID329577594 | -1.83 (active) |
| ADAM30 (ADAM metallopeptidase domain 30) | SID329577528 | 1.29 (active) |
| SULF2 (sulfatase 2) | SID329579940 | -0.24 |
| HOXA4 (homeobox A4) | SID329574011 | 0.715 |
| PLEKHG4 (pleckstrin homology and RhoGEF domain containing G4) | SID329578209 | 1.71 (active) |
| CATSPERE (catsper channel auxiliary subunit epsilon) | SID329583758 | -0.481 |
| RSPH9 (radial spoke head component 9) | SID329583587 | 1.13 (active) |
| EXTL2 (exostosin like glycosyltransferase 2) | SID329573587 | -2.04 (active) |
| MAMLD1 (mastermind like domain containing 1) | SID329576930 | -1.9 (active) |
| TOP2B (DNA topoisomerase II beta) | SID329575694 | 0.527 |
| MCM8 | SID329581639 | -1.88 (active) |
| GLRX2 (glutaredoxin 2) | SID329578861 | -0.764 |
| LAIR1 (leukocyte associated immunoglobulin like receptor 1) | SID329574269 | 1.99 (active) |
| OR5K2 (olfactory receptor family 5 subfamily K member 2) | SID329584510 | -0.312 |
| LINC02872 (long independently transcribed non-coding RNA 2872) | SID329584498 | -1.1 (active) |
| TDRD3 (tudor domain containing 3) | SID329581309 | -1.42 (active) |
| TIMM9 (translocase of inner mitochondrial membrane 9) | SID329578399 | 0.94 |
| DCAKD (dephospho-CoA kinase domain containing) | SID329581056 | -0.607 |
| SVBP (small vasohibin binding protein) | SID329584243 | 1.32 (active) |
| EPS15L1 (epidermal growth factor receptor pathway substrate 15 like 1) | SID329580429 | -0.385 |
| EPCIP (exosomal polycystin 1 interacting protein) | SID329580014 | -0.55 |
| CD37 (CD37 molecule) | SID329573076 | -0.974 |
| WFDC10A (WAP four-disulfide core domain 10A) | SID329582827 | -0.0735 |
| ALOX12 (arachidonate 12-lipoxygenase, 12S type) | SID329572747 | -1.11 (active) |
| TNFRSF17 (TNF receptor superfamily member 17) | SID329572909 | 0.823 |
| HGS (hepatocyte growth factor-regulated tyrosine kinase substrate) | SID329576452 | -0.811 |
| ATXN1 (ataxin 1) | SID329575246 | 0.925 |
| LRGUK (leucine rich repeats and guanylate kinase domain containing) | SID329582738 | 3.3 (active) |
| KRABD3 (KRAB domain containing 3) | SID329581670 | -1.56 (active) |
| CNPY3 (canopy FGF signaling regulator 3) | SID329577324 | 1.05 (active) |
| SPOUT1 (SPOUT domain containing methyltransferase 1) | SID329579087 | -1.2 (active) |
| DUX1 (double homeobox 1) | SID329578419 | -0.734 |
| DHRS1 (dehydrogenase/reductase 1) | SID329582281 | 1.41 (active) |
| TMPO (thymopoietin) | SID329575673 | 0.644 |
| CLEC2B (C-type lectin domain family 2 member B) | SID329576900 | 0.905 |
| CATSPERB (catsper channel auxiliary subunit beta) | SID329581027 | 1.09 (active) |
| ZNF423 (zinc finger protein 423) | SID329577802 | 0.531 |
| VAT1 (vesicle amine transport 1) | SID329577197 | -1.16 (active) |
| SS18L1 (SS18L1 subunit of BAF chromatin remodeling complex) | SID329578286 | -0.784 |
| CBARP (CACN subunit beta associated regulatory protein) | SID329583717 | 1.12 (active) |
| FAM20A (FAM20A golgi associated secretory pathway pseudokinase) | SID329579379 | 0.223 |
| RAB4A (RAB4A, member RAS oncogene family) | SID329575043 | -0.468 |
| CRYZ (crystallin zeta) | SID329573275 | -1.25 (active) |
| OR8K5 (olfactory receptor family 8 subfamily K member 5) | SID329583497 | -1.06 (active) |
| SLC37A1 | SID329579242 | -0.583 |
| CATSPERT (catsper channel auxiliary subunit tau) | SID329583039 | 0.639 |
| OLFM2 (olfactomedin 2) | SID329582102 | -0.217 |
| GPR6 (G protein-coupled receptor 6) | SID329573829 | -0.693 |
| DTD2 (D-aminoacyl-tRNA deacylase 2) | SID329582158 | 0.0248 |
| HCFC1R1 (host cell factor C1 regulator 1) | SID329579506 | -1.63 (active) |
| FAHD2A (fumarylacetoacetate hydrolase domain containing 2A) | SID329578853 | -1.77 (active) |
| OR10G8 (olfactory receptor family 10 subfamily G member 8) | SID329583525 | 0.871 |
| A4GNT (alpha-1,4-N-acetylglucosaminyltransferase) | SID329578933 | 1.6 (active) |
| PANX1 (pannexin 1) | SID329578147 | -2.42 (active) |
| SFXN4 (sideroflexin 4) | SID329582387 | -1.35 (active) |
| DHX58 (DExH-box helicase 58) | SID329580841 | 1.2 (active) |
| MIR9-1HG (MIR9-1 host gene) | SID329577190 | -0.867 |
| ANP32CP (acidic nuclear phosphoprotein 32 family member C, pseudogene) | SID329578034 | -3.03 (active) |
| B3GALT5 (beta-1,3-galactosyltransferase 5) | SID329577095 | -0.676 |
| MYL12B (myosin light chain 12B) | SID329582155 | -1.68 (active) |
| ROBO2 (roundabout guidance receptor 2) | SID329575138 | -0.245 |
| LCN15 (lipocalin 15) | SID329584369 | -0.771 |
| BRI3BP (BRI3 binding protein) | SID329582813 | -1.57 (active) |
| IDE (insulin degrading enzyme) | SID329574084 | 0.809 |
| YJEFN3 (YjeF N-terminal domain containing 3) | SID329584237 | 0.848 |
| OSBP2 (oxysterol binding protein 2) | SID329578129 | -0.834 |
| SMO (smoothened, frizzled class receptor) | SID329575399 | -0.563 |
| CARD19 (caspase recruitment domain family member 19) | SID329581570 | -1.51 (active) |
| CLIP1 (CAP-Gly domain containing linker protein 1) | SID329575214 | 1.01 (active) |
| FGF19 (fibroblast growth factor 19) | SID329576894 | -0.912 |
| DNM1L (dynamin 1L) | SID329576939 | -0.905 |
| OR52B2 (olfactory receptor family 52 subfamily B member 2) | SID329583728 | 1.55 (active) |
| TP53INP2 (tumor protein p53 inducible nuclear protein 2) | SID329580406 | -0.102 |
| CCT3 (chaperonin containing TCP1 subunit 3) | SID329575717 | 1.07 (active) |
| PLGLB1 (plasminogen like B1) | SID329574862 | -1.26 (active) |
| PSMD11 (proteasome 26S subunit, non-ATPase 11) | SID329574999 | -1.24 (active) |
| NXPH3 (neurexophilin 3) | SID329577613 | -0.298 |
| GPN1 (GPN-loop GTPase 1) | SID329577640 | 0.529 |
| MOSPD2 (motile sperm domain containing 2) | SID329583157 | -0.577 |
| AKAP12 (A-kinase anchoring protein 12) | SID329576679 | -1.19 (active) |
| ERRFI1 (ERBB receptor feedback inhibitor 1) | SID329579257 | 2.76 (active) |
| AQR (aquarius intron-binding spliceosomal factor) | SID329576748 | -1 (active) |
| PRAF2 (PRA1 domain family member 2) | SID329577608 | -1.72 (active) |
| APOA5 (apolipoprotein A5) | SID329582319 | -1.24 (active) |
| ADRB1 (adrenoceptor beta 1) | SID329572712 | -1.85 (active) |
| NOP10 (NOP10 ribonucleoprotein) | SID329579729 | -0.0079 |
| NEURL4 (neuralized E3 ubiquitin protein ligase 4) | SID329581630 | 1.09 (active) |
| DOCK4 (dedicator of cytokinesis 4) | SID329576759 | 0.169 |
| COG8 (component of oligomeric golgi complex 8) | SID329581611 | -0.635 |
| ZYX (zyxin) | SID329575944 | 1.29 (active) |
| GBP1 (guanylate binding protein 1) | SID329573730 | -0.677 |
| HLA-E (major histocompatibility complex, class I, E) | SID329573975 | 2.11 (active) |
| TMA16 (translation machinery associated 16 homolog) | SID329579689 | -1.45 (active) |
| PEX3 (peroxisomal biogenesis factor 3) | SID329576140 | -0.285 |
| CTNNB1 (catenin beta 1) | SID329573312 | -0.823 |
| USB1 (U6 snRNA biogenesis phosphodiesterase 1) | SID329580935 | -0.951 |
| EOGT (EGF domain specific O-linked N-acetylglucosamine transferase) | SID329583920 | 1.05 (active) |
| TMEM225 (transmembrane protein 225) | SID329584027 | -1.23 (active) |
| LINC02910 (long intergenic non-protein coding RNA 2910) | SID329583912 | 0.991 |
| ACTR2 (actin related protein 2) | SID329576960 | -0.074 |
| BNIP3L (BCL2 interacting protein 3 like) | SID329572936 | 0.966 |
| ATP6V0A4 (ATPase H+ transporting V0 subunit a4) | SID329578803 | -2.47 (active) |
| BACC1 (BPTF associated chromatin complex component 1) | SID329582504 | 2.71 (active) |
| LPAR6 (lysophosphatidic acid receptor 6) | SID329577002 | 1.75 (active) |
| SLCO4C1 | SID329584195 | -1.78 (active) |
| ELOVL5 (ELOVL fatty acid elongase 5) | SID329580469 | -0.729 |
| SLC26A11 | SID329583870 | -1.99 (active) |
